## Mutational scan of HIV-1 Vif (1203) in cells with APOBEC3G

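A pool of vif mutants was passaged twice, 72 h each, on SupT1 cells that express APOBEC3G. Frequencies after the second round, in three biological replicates, were compared with the merged pool after the first round. Changes do not touch integrase, since the pol overlap was removed.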

Vif of 1203 (a subtype B primary isolate), residues 12-115; positions count from the first residue of the whole protein:
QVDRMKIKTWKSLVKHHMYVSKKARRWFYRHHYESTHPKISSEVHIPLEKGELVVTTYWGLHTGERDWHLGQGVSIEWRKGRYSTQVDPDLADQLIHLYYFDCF

The score is log2 enrichment against the wild-type codon: higher is better tolerated, lower is depleted.
Substitutions are written as wild-type residue, site number, new residue.
This list holds changes to alanine only.
The median of three replicates is given, with the replicates in brackets.
Input reads are the counts in the merged round-one pool, before selection.
Some changes are missing from the data or left out.

* D14A (input reads 269) -> -1.85 (-2.39 / -1.54 / -1.85)
* R15A (input reads 642) -> -1.83 (-1.83 / -2.47 / -1.42)
* M16A (input reads 33) -> -0.24 (-0.86 / 4.03 / -0.24)
* K19A (input reads 158) -> 0.13 (0.13 / 4.87 / 0.01)
* V25A (input reads 18) -> 2.28 (0.90 / 5.18 / 2.28)
* K33A (input reads 18) -> 0.58 (5.49 / -1.03 / 0.58)
* K34A (input reads 281) -> -2.33 (-0.53 / -2.33 / -2.97)
* F39A (input reads 359) -> -2.53 (-2.60 / -2.53 / -1.47)
* Y40A (input reads 220) -> -2.77 (-4.06 / -2.77 / -1.43)
* S46A (input reads 305) -> -1.74 (2.47 / -2.13 / -1.74)
* H48A (input reads 26) -> -0.42 (-0.51 / 5.26 / -0.42)
* P58A (input reads 253) -> -1.94 (-1.64 / -2.15 / -1.94)
* L59A (input reads 1932) -> -2.59 (-1.35 / -3.42 / -2.59)
* E63A (input reads 55) -> 3.86 (3.86 / -1.06 / 4.85)
* V66A (input reads 37) -> -1.34 (1.84 / -1.34 / -3.27)
* G71A (input reads 237) -> -1.95 (-1.95 / -2.22 / -1.81)
* L72A (input reads 161) -> 0.11 (-0.44 / 0.11 / 5.22)
* E76A (input reads 20) -> 0.22 (0.22 / 5.59 / -0.07)
* R77A (input reads 380) -> -2.57 (-3.08 / -2.57 / -2.34)
* G84A (input reads 273) -> -2.23 (-2.76 / 1.06 / -2.23)
* E88A (input reads 285) -> -2.20 (-2.23 / -2.20 / -1.64)
* R90A (input reads 342) -> -2.74 (-2.38 / -2.74 / -3.00)
* K91A (input reads 777) -> -2.16 (-2.49 / 0.32 / -2.16)
* Y94A (input reads 129) -> -2.24 (-2.45 / -1.96 / -2.24)
* S95A (input reads 235) -> -2.04 (-2.04 / -1.78 / -2.43)
* V98A (input reads 214) -> -3.38 (-2.89 / -3.38 / -4.21)
* P100A (input reads 26) -> -0.14 (-0.14 / -0.82 / 0.07)
* L102A (input reads 156) -> -2.51 (-2.70 / -2.51 / -1.86)
* L106A (input reads 66) -> -0.79 (-1.18 / -0.79 / -0.38)
* I107A (input reads 147) -> -1.32 (-1.71 / 1.64 / -1.32)
* Y110A (input reads 142) -> -1.49 (-1.20 / -1.49 / -5.15)
* Y111A (input reads 170) -> -1.54 (-1.76 / 1.51 / -1.54)
* F112A (input reads 236) -> -1.50 (0.06 / -3.16 / -1.50)
* D113A (input reads 16) -> -0.90 (-2.67 / -0.90 / 5.46)
* C114A (input reads 368) -> 0.01 (0.01 / -3.26 / 0.46)

Extract of 4 entries:

- K19A (input reads 158) = 0.13 (0.13 / 4.87 / 0.01)
- Y110A (input reads 142) = -1.49 (-1.20 / -1.49 / -5.15)
- C114A (input reads 368) = 0.01 (0.01 / -3.26 / 0.46)
- L106A (input reads 66) = -0.79 (-1.18 / -0.79 / -0.38)

Replicates agree only moderately (rank correlation about 0.4-0.65); scores from under about 50 input reads tend to be too high.
The authors note that some positive scores may be noise, and some enriched variants failed when tested singly.

From the data files of Langley et al. 2025, preprint, doi:10.1101/2025.10.20.683452.